Patent publication US20110033498

Key:
[1] = target: 6His-tagged mouse ISG15 (6HismISG15) conjugated to cellular proteins in transfected 293T cells, Q64339
[2] = target: K48-linked poly-ubiquitin chains Ub2-7, P0CG47
[3] = target: K63-linked poly-ubiquitin chains, P0CG47
[4] = target: poly-SUMO-2 chains (2-8), P61956

B1: CCHFV-L(1-169) recombinant protein (untagged, purified from E. coli) (protein)
chain: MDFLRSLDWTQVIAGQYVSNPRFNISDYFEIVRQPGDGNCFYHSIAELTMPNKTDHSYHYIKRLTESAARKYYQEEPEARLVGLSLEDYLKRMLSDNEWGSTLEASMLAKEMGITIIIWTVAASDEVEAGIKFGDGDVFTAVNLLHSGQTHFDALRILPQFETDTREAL
Question: Which “in vitro deISGylation of Ni-NTA enriched His-ISG15 conjugates, Western blot” value [1] does the source give for B1 here?
Answer: Its value is “L(1-169) was able to deconjugate ISGylated proteins”.

Question: What about the “in vitro hydrolysis of polyubiquitin chains, SDS-PAGE and Coomassie staining” value [2] of the same protein?
Answer: Its value is “cleaved both K48 and K63-linked ubiquitin chains into monomers”.

Question: And the “in vitro hydrolysis of polyubiquitin chains, SDS-PAGE and Coomassie staining” value [3]?
Answer: Its value is “cleaved both K48 and K63-linked ubiquitin chains into monomers”.

Question: And the “in vitro hydrolysis of poly-SUMO-2 chains, SDS-PAGE and Coomassie staining” value [4]?
Answer: Its value is “the core OTU domain was not able to hydrolyze the branched poly-SUMO-2 chains”.

Question: What about the “in vitro hydrolysis of poly-SUMO-3 chains, anti-SUMO-3 Western blot” value (poly-SUMO-3 chains (2-8)) of the same protein?
Answer: Its value is “An identical result was obtained when poly-SUMO-3(2-8) chains were tested”.

Question: What about the “in vitro processing of pro-ISG15, SDS-PAGE and Coomassie staining” value (pro-ISG15) of the same protein?
Answer: The value was “L(1-169) processed a pro-ISG15 protein into its mature form”.

Question: What about the “in vitro processing of pro-Nedd8, Coomassie staining” value (pro-Nedd8, Q15843) of the same protein?
Answer: Its value is “L(1-169) hydrolyzed pro-Nedd8 into a mature form”.
